Measured values from several laboratories, pooled; numbers as filed in NIAID ChemDB.

Common to all: whole-cell or culture tests; agent: Candida albicans

Rows are shuffled and stem from different studies. Blank or dashed fields: not listed here. MIC50, MIC90 and the like: level of inhibition, or share of isolates inhibited.

structure,method,endpoint,strain,value
CCCCCOc1ccc(-c2ccc(-c3ccc(C(=O)N[C@H]4CCCNC(=O)[C@@H]5C[C@H](N)CN5C(=O)[C@H]([C@@H](C)O)NC(=O)[C@H](COCc5ccccc5)NC(=O)[C@@H]5C[C@@H](O)CN5C(=O)[C@H]([C@@H](C)O)NC4=O)cc3)cc2)cc1,,MIC,ATCC 62376,1.56 µg/mL
C[C@H]1[C@H](O)[C@@H](C)/C=C/C=C/C=C/C=C/C=C/C=C/C=C/[C@H](O[C@@H]2O[C@H](C)[C@@H](O)[C@H](N)[C@@H]2O)C[C@@H]2O[C@](O)(C[C@@H](O)C[C@@H](O)CC[C@H](O)[C@@H](O)C[C@@H](O)CC(=O)O[C@H]1C)C[C@H](O)[C@H]2C(=O)O,,MIC80,ATCC 90028 (azole-susceptible),0.13 µg/mL
O=C(CCn1ccnc1)c1ccc(-c2ccccc2)cc1,broth dilution,MIC,RTCC 1003,8 µg/mL
CC1(C)N=C(N)N=C(N)N1OCCCCCCON1C(N)=NC(N)=NC1(C)C,,MIC,,>60 µg/mL
CC(C)C(=O)CCC[C@H]1CO[C@@](Cn2cncn2)(c2ccc(F)cc2F)C1,,MIC,B02630,>100 µg/mL
C=CCn1cc(CN2CCN([C@H](C)[C@](O)(Cn3cncn3)c3ccc(F)cc3F)CC2)c2ccc(Cl)cc21,resazurin,MIC80,ATCC 36082,0.125 µg/mL
C[C@@H](c1nc(-c2ccc(C#N)cc2)cs1)[C@](O)(Cn1cnnc1)c1ccc(F)cc1F,,MIC50,34 isolates,0.008 µg/mL
C(=C\c1ccccc1)/COC(Cn1ccnc1)c1ccccc1,,MIC,Y0109,>128 µg/mL
c1ccc2oc(Cc3cc4ccccc4o3)cc2c1,,MIC,,>60 µg/mL
CC(C)C(=N)CCC=C1CO[C@@](Cn2ccnc2)(c2ccc(F)cc2F)C1,,MIC,B02630,>100 µg/mL
CCCCCCCCOc1ccc(N2CCN(c3ccc(C(=O)N[C@H]4CCCNC(=O)[C@@H]5C[C@H](N)CN5C(=O)[C@H](CCN)NC(=O)[C@H](CCc5ccc(O)cc5)NC(=O)[C@@H]5CCCN5C(=O)[C@H]([C@@H](C)O)NC4=O)cc3)CC2)cc1,,MIC,ATCC 38247,0.39 µg/mL
Cc1ccc(-c2c3c(N)c4c(nc3nc3c2c(C)nn3-c2ccccc2)CCCC4)cc1,broth dilution / absorbance,MIC50,CCC 127,31.2 µg/mL
N=C(N)c1ccc2oc(/C=C/c3cc4ccc(C(=N)N)cc4o3)cc2c1,,MIC,,30 µg/mL
CC(C)C1C[C@H]2C[C@]3(C=O)[C@@H]4CC[C@@H](C)[C@H]4C[C@@]2(CO[C@H]2CN(C4CC4)C[C@@H](C)O2)[C@]13C(=O)O,,MIC,4711E,0.002 µg/mL
Cc1ccc(-c2c3c(N)c4c(nc3nc3c2c(C)nn3-c2ccccc2)CCCCC4)cc1,broth dilution / absorbance,MIC50,CCC 130,31.2 µg/mL
Cc1ccc(C(Cn2ccnc2)OC/C=C/c2ccccc2)cc1,,MIC,CDCB385,128 µg/mL
C=C(CF)CN1C[C@H](OC[C@@]23C[C@@H]4[C@H](C)CC[C@H]4[C@@]4(C=O)C[C@@H]2CC(C(C)C)[C@@]34C(=O)O)O[C@H](C)C1,,MIC50,16 isolates/fluconazole resistant,0.008 µg/mL
C[C@@H](N1CCN(Cc2cn(Cc3ccc(C(F)(F)F)cc3)c3cc(Cl)ccc23)CC1)[C@](O)(Cn1cncn1)c1ccc(F)cc1F,resazurin,MIC80,ATCC 64548,0.125 µg/mL
OC(CN1CCN(c2ccc(OCc3ccncc3)cc2)CC1)(Cn1cncn1)c1ccc(F)cc1F,,MIC80,305271,1 µg/mL
CCCCCOc1ccc(-c2ccc(-c3ccc(C(=O)N[C@H]4C[C@@H](O)[C@@H](O)NC(=O)[C@@H]5[C@@H](O)[C@@H](C)CN5C(=O)[C@H]([C@H](C)O)NC(=O)[C@H]([C@H](O)[C@@H](O)c5ccc(O)cc5)NC(=O)[C@@H]5C[C@@H](O)CN5C(=O)[C@H]([C@H](C)O)NC4=O)cc3)cc2)cc1,,MIC90,10 strains (fluconazole-resistant),0.25 µg/mL
CCCCCOc1ccc(-c2ccc(-c3ccc(C(=O)N[C@H]4CCCNC(=O)[C@@H]5C[C@H](NC(=O)CCC(=O)O)CN5C(=O)[C@H]([C@@H](C)O)NC(=O)[C@H](CCc5ccc(O)cc5)NC(=O)[C@@H]5C[C@@H](O)CN5C(=O)[C@H]([C@@H](C)O)NC4=O)cc3)cc2)cc1,,MIC,ATCC 38247,3.12 µg/mL
CC[C@@H]([C@H](C)O)n1ncn(-c2ccc(N3CCN(c4ccc(OC[C@@H]5CO[C@@](Cn6cncn6)(c6ccc(F)cc6F)C5)cc4)CC3)cc2)c1=O,,MIC,Isolate CA-7,>4 µg/mL
Cc1c(O)cccc1C(=O)N[C@@H](CSc1ccccc1)[C@H](O)CN1C[C@H]2CCCC[C@H]2C[C@H]1C(=O)NC(C)(C)C,,MIC,I175A,>64 µg/mL
N=C(N)c1ccc(NN=Nc2ccc(-c3cc4cc(C(=N)N)ccc4o3)cc2)cc1,,MIC,,>60 µg/mL
Clc1ccc(C(Cn2ccnc2)OCc2ccc(-c3ccccc3)cc2)c(Cl)c1,,MIC,5M,128 µg/mL
C[C@@H](N1CCN(Cc2cn(Cc3ccc(Cl)cc3Cl)c3ccc(C#N)cc23)CC1)[C@](O)(Cn1cncn1)c1ccc(F)cc1F,resazurin,MIC80,ATCC 90028,0.25 µg/mL
CC(C)C(=N)CCC[C@H]1CO[C@@](Cn2cncn2)(c2ccc(F)cc2F)C1,,MIC,IFO. 1385,12.5 µg/mL
COc1ccc2c(Cc3ccc(C(C)(C)C)cc3)c3[n+](cc2c1OC)CCc1cc2c(cc1-3)OCO2,,MIC,ATCC200955,1.56 µg/mL
Cc1nn(-c2ccccc2)c2nc3nc4c(c(N)c3c(-c3ccc(Cl)cc3)c12)CCCC4,broth dilution / absorbance,MIC50,ATCC 10231,125 µg/mL
Clc1ccc(CO/N=C2/c3ccccc3OCC2n2cncn2)cc1Cl,,MIC,ATCC 10231,>64 µg/mL
Cc1ccc(C(Cn2ccnc2)OCc2ccc(C(C)(C)C)cc2)cc1,,MIC,CA7,>128 µg/mL
CCCCCOc1ccc(-c2ccc(-c3ccc(C(=O)N[C@H]4CCCNC(=O)[C@@H]5C[C@H](N)CN5C(=O)[C@H]([C@@H](C)O)NC(=O)[C@H](Cc5ccc(O)cc5)NC(=O)[C@@H]5C[C@@H](O)CN5C(=O)[C@H]([C@@H](C)O)NC4=O)cc3)cc2)cc1,,MIC,ATCC 38247,25 µg/mL
O=C(CCn1ccnc1)c1cccc(O)c1,broth dilution,MIC,RTCC1024,64 µg/mL
CCCCCOc1ccc(-c2ccc(-c3ccc(C(=O)N[C@H]4CCCNC(=O)[C@@H]5C[C@H](N)CN5C(=O)[C@H]([C@@H](C)O)NC(=O)[C@H](CCc5ccc(O)cc5)NC(=O)[C@@H]5C[C@@H](O)CN5C(=O)[C@H]([C@@H](C)O)NC4=O)cc3)cc2)cc1,,MIC,ATCC 62376,0.2 µg/mL
CC(C)C(=O)CCC[C@@H]1CO[C@@](Cn2cncn2)(c2ccc(F)cc2F)C1,,MIC,B02630,>100 µg/mL
Cc1ccc(-c2c3c(N)c4c(nc3nc3c2c(C)nn3-c2ccccc2)CCC4)cc1,broth dilution / absorbance,MIC80,ATCC 10231,62.5 µg/mL
CC(C)C(=N)CCC[C@H]1CO[C@@](Cn2cccc2)(c2ccc(F)cc2F)C1,,MIC,IFO. 1385,12.5 µg/mL
O=C1c2ccccc2CC1Cn1ccnc1,broth dilution,MIC,RTCC 1003,>64 µg/mL
CC(C)(C)c1ccc(COC(Cn2ccnc2)c2ccc(Cl)cc2Cl)cc1,,MIC,5M,>128 µg/mL
Fc1ccc(CO/N=C2\c3ccccc3OCC2n2cncn2)cc1,,MFC,ATCC 10231,>64 µg/mL
C[C@@H](N1CCN(Cc2cn(Cc3ccc(Cl)cc3Cl)c3c(Cl)cccc23)CC1)[C@](O)(Cn1cncn1)c1ccc(F)cc1F,resazurin,MIC80,ATCC 64548,0.125 µg/mL
Clc1ccc(C(Cn2ccnc2)OC/C=C/c2ccccc2)c(Cl)c1,,MIC,CA2,2 µg/mL
CN(CCCC#CC(C)(C)C)c1cccc2c1CCC(=O)N2,,MIC,Clinical isolate 12,62.5 µg/mL
Clc1ccc(C(Cn2ccnc2)OCc2cccc3ccccc23)cc1,,MIC,3M,128 µg/mL
N=C(N)c1ccc2oc(/C=C/c3cc4ccc(C(=N)N)cc4[nH]3)cc2c1,,MIC,,>60 µg/mL
C[C@@H](N1CCN(Cc2cn(Cc3ccc(C(F)(F)F)cc3)c3c(F)cccc23)CC1)[C@](O)(Cn1cncn1)c1ccc(F)cc1F,resazurin,MIC80,ATCC 36082,0.125 µg/mL
CCCCCC1N=C(N)N=C(N)N1OCc1cccc2ccccc12,,MIC,,125 µg/mL
C[C@H]1[C@H](O)[C@@H](C)/C=C/C=C/C=C/C=C/C=C/C=C/C=C/[C@H](O[C@@H]2O[C@H](C)[C@@H](O)[C@H](N)[C@@H]2O)C[C@@H]2O[C@](O)(C[C@@H](O)C[C@@H](O)CC[C@H](O)[C@@H](O)C[C@@H](O)CC(=O)O[C@H]1C)C[C@H](O)[C@H]2C(=O)O,broth dilution / absorbance,MIC100,CCC 125,0.78 µg/mL
C=CCSS(=O)CC=C,broth dilution,MIC90,Clinical Isolate 0163,12.5 µg/mL
Cc1c(S(=O)(=O)c2ccccc2)[n+](=O)c2cc(Cl)ccc2n1[O-],,MIC,Clinical isolate 3,62.5 µg/mL
C=C=CCN1C[C@H](OC[C@@]23C[C@@H]4[C@H](C)CC[C@H]4[C@@]4(C=O)C[C@@H]2CC(C(C)C)[C@@]34C(=O)O)O[C@H](C)C1,,MIC,CL-236,0.004 µg/mL
Clc1ccc(CO/N=C2/c3ccc(Cl)cc3OCC2n2cnnc2)cc1,,MFC,ATCC 10231,>64 µg/mL
CCC(C)n1ncn(-c2ccc(N3CCN(c4ccc(OC[C@H]5CO[C@](Cn6cncn6)(c6ccc(Cl)cc6Cl)O5)cc4)CC3)cc2)c1=O,,MIC,Isolate CA-4,>8 µg/mL
CCCCCCCCCCCCON1C(N)=NC(N)=NC1(C)C,,MIC,,15 µg/mL
CCCCCOc1ccc(-c2ccc(-c3ccc(C(=O)N[C@H]4CCCNC(=O)[C@@H]5C[C@H](N)CN5C(=O)[C@H]([C@@H](C)O)NC(=O)[C@H](CCc5ccccc5)NC(=O)[C@@H]5C[C@@H](O)CN5C(=O)[C@H]([C@@H](C)O)NC4=O)cc3)cc2)cc1,,MIC,ATCC 38247,3.12 µg/mL
CCCON1C(N)=NC(N)=NC1(C)C,,MIC,,>60 µg/mL
C[C@@H](SC1COC(/C=C/C=C/c2ccc(C#N)cc2F)OC1)[C@](O)(Cn1cncn1)c1ccc(F)cc1F,,MIC,CAL-0015,0.03 µg/mL
CC(C)(C)c1ccc(COC(Cn2ccnc2)c2ccccc2)cc1,,MIC,CA2,128 µg/mL
O=C(CCn1ccnc1)c1cccc2ccccc12,broth dilution,MIC,RTCC 1003,>64 µg/mL
CCOc1cc2c(cc1F)n([O-])c(C)c(S(=O)(=O)c1ccccc1)[n+]2=O,,MIC,Clinical isolate 11,15.6 µg/mL
Fc1ccccc1CO/N=C1\c2ccccc2OCC1n1cncn1,,MFC,ATCC 10231,>64 µg/mL

The last 8 rows once more:

structure | method | endpoint | strain | value
CCCCCCCCCCCCON1C(N)=NC(N)=NC1(C)C |  | MIC |  | 15 µg/mL
CCCCCOc1ccc(-c2ccc(-c3ccc(C(=O)N[C@H]4CCCNC(=O)[C@@H]5C[C@H](N)CN5C(=O)[C@H]([C@@H](C)O)NC(=O)[C@H](CCc5ccccc5)NC(=O)[C@@H]5C[C@@H](O)CN5C(=O)[C@H]([C@@H](C)O)NC4=O)cc3)cc2)cc1 |  | MIC | ATCC 38247 | 3.12 µg/mL
CCCON1C(N)=NC(N)=NC1(C)C |  | MIC |  | >60 µg/mL
C[C@@H](SC1COC(/C=C/C=C/c2ccc(C#N)cc2F)OC1)[C@](O)(Cn1cncn1)c1ccc(F)cc1F |  | MIC | CAL-0015 | 0.03 µg/mL
CC(C)(C)c1ccc(COC(Cn2ccnc2)c2ccccc2)cc1 |  | MIC | CA2 | 128 µg/mL
O=C(CCn1ccnc1)c1cccc2ccccc12 | broth dilution | MIC | RTCC 1003 | >64 µg/mL
CCOc1cc2c(cc1F)n([O-])c(C)c(S(=O)(=O)c1ccccc1)[n+]2=O |  | MIC | Clinical isolate 11 | 15.6 µg/mL
Fc1ccccc1CO/N=C1\c2ccccc2OCC1n1cncn1 |  | MFC | ATCC 10231 | >64 µg/mL